From US20260223846A1, “PEPTIDE IN COMBINATION WITH FUNGICIDE COMPOSITIONS FOR FUNGAL CONTROL AND RELATED METHODS” (priority 2023, published 2026)
Like-named read-outs stand apart in the source and are kept apart here.

What was measured:
[1] = system: Pseudoperonospora cubensis; experiment: Pseudoperonospora cubensis (cucurbit downy mildew) leaf disk assay; format: in vivo
Botrytis cinerea b05.10 = format: cell-based; settings: for Inhibition: 24 hours at 20° C.
[2] = system: Fusarium graminearum (Gibberella zeae); format: cell-based
Botrytis (Strain B05.10) = experiment: Botrytis inhibition assay (resazurin assay); format: cell-based; settings: tested alone at 2.5 μM
[3] = system: Fusarium oxysporum f. sp. lycopersici (Saccardo) Snyder et Hansen CBS 167.30; experiment: Resazurin plate co-incubation assay, F. oxysporum; format: cell-based
Fusarium proliferatum = experiment: Co-incubation (oCelloScope) assay, F. proliferatum conidial germination; format: cell-based; settings: 24 hours at 23° C.

CSCC[C@H](NC(=O)[C@@H]1CCCN1C(=O)[C@H](CCC(N)=O)NC(=O)CNC(=O)[C@@H]1CCCN1C(=O)[C@H](CCCCN)NC(=O)[C@H](CC(C)C)NC(=O)[C@H](CCC(N)=O)NC(=O)[C@H](CC(C)C)NC(=O)[C@H](Cc1c[nH]c2ccccc12)NC(=O)[C@H](Cc1c[nH]cn1)NC(=O)[C@@H](N)Cc1c[nH]c2ccccc12)C(=O)N[C@@H](Cc1ccc(O)cc1)C(=O)N[C@@H](CCCNC(=N)N)C(=O)N[C@@H](CCCNC(=N)N)C(=O)N[C@@H](CCCNC(=N)N)C(=O)N[C@@H](CCCNC(=N)N)C(=O)N[C@@H](CCCNC(=N)N)C(=O)N[C@@H](CCCNC(=N)N)C(=O)N[C@@H](CCCNC(=N)N)C(=O)N[C@@H](CCCNC(=N)N)C(=O)O [Pep340]
Inhibition (reduced disease severity of leaf discs) ([1]; 20 micromolar): did not and No | Summary of CGI factor spectrum of activity ([1]; Downy Mildew): No | Inhibition (Botrytis cinerea b05.10; 10 micromolar): inhibited and Yes | Inhibition (Botrytis cinerea b05.10; 100 micromolar): inhibited and Yes | Summary of CGI factor spectrum of activity (Botrytis cinerea b05.10; Botrytis cinerea, at least one concentration tested): completely inhibited conidial germination and Yes | Inhibition ([2]; 50 micromolar): Yes | Summary of CGI factor spectrum of activity ([2]; Fusarium graminearum): Yes | Percent Inhibition EXP23002594 (Botrytis (Strain B05.10)): 9.26% | Percent Inhibition EXP23002662 (Botrytis (Strain B05.10)): 5.3% | Inhibition ([3]; 50 micromolar): Yes | Summary of CGI factor spectrum of activity ([3]; Fusarium oxysporum): Yes | Inhibition of conidial germination (Fusarium proliferatum; tested alone at 0.125 uM): No | Inhibition of conidial germination (Fusarium proliferatum; tested alone at 0.25 uM): No | Inhibition of conidial germination (Fusarium proliferatum; tested alone at 0.5 uM): showed activity and Yes and No | Inhibition of conidial germination (Fusarium proliferatum; tested alone at 1 uM): effective and Yes
